## Library screen at single concentrations

From ChEMBL document CHEMBL3988442, “University of Dundee, Small-Polar-MMV Screening Library” (2021).

Results are given as percent effect. The record does not define 0% and 100%; most values in the screen are far below 50% and negative numbers occur (in some assays of this library far below -100). Many other results are left out here, so strong results are more common than in the screen. Two or more numbers in one place are separate tests of the same structure; such repeats can differ widely.

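Phenotypic screen: M. tuberculosis growth, cholesterol and DPPC medium, 4 days; the read-out is not stated. Compounds at 50 µM. The record gives no direction; compounds that gave an IC50 in retests scored well above the rest, so higher reads as more growth inhibition. Of about 69,000 compounds tested this way, about 370 (0.54%) reached 50% or more in at least one test.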

CCNc1nnc(SC(C(=O)NCc2cccnc2)C(C)C)s1 (stereo unspecified) gave 4.478%. With c1ccc(-c2cc(CN3CCCC(Cn4cncn4)C3)on2)cc1 (stereo unspecified) the screen gave 9.716%. For CCN1CCN(CCNC(=O)c2ccn(-c3ccc(F)cc3)n2)CC1 the result was -16.64%. With CC(O)CNc1c(NCc2ccco2)c(=O)c1=O (stereo unspecified) the screen gave -3.237%. Result for CCOc1ccc(CN2C(=O)CC(CC)(CC)C2=O)nc1 was 12.92%. For CN(CC1CCN(c2ccccc2)C1)c1ccc(Cn2ccnc2)cn1 (stereo unspecified) the result was 67.99% & 49.16%.

Cc1nc(N2CCOCC2)nc2c1CCN(Cc1cccnc1)CC2.O=C(O)C(F)(F)F gave 13.46%. COC(=O)c1ccc(N2CCC(N(C)c3ccccc3)CC2)nn1 gave 110%. CCNc1nc(C)c(C(=O)N(C)Cc2noc(C)n2)s1 read -17.19%. N#Cc1nccnc1N1CCC(CSc2ccccc2)C1 (stereo unspecified) read 58.43%. For COc1ccc(-c2noc(C(CC(C)C)N3CCCCC3=O)n2)cn1 (stereo unspecified) the result was 4.518%. With COCCNC(=O)Nc1ccc(F)c(C(N)=O)c1 the screen gave -16.39%.

With Fc1cccc(-n2cccn2)c1NCc1nnc(C2CC2)o1 the screen gave -18.22%. Result for COCc1nc2cc(NCc3ccc(C)o3)ccc2o1 was 9.304% & 16.05%. CC(C)Nc1nc(N2CCOCC2)nc2c1CN(Cc1ccoc1)CC2 gave -19.56%. Result for COCCNC(=O)NCc1ccc(OC(C)C)c(F)c1 was 6.021%. For Cc1n[nH]c(SCC(=O)NC(c2ccncc2)C(C)C)n1 (stereo unspecified) the result was -3.693%. CCn1nc(C)c2nc(C)nc(N(C)Cc3ccco3)c21 read 1.699%.

For CCCC(C)N(C)Cc1nnc(-c2ccco2)o1 (stereo unspecified) the result was 25.75%. Result for Cc1nn(C)c(C)c1CN(CCO)C(=O)C1COc2ccccc2C1 (stereo unspecified) was 77.41% & -46.01%. With COc1ccc(CN(C(=O)C2CCOCC2)c2ccncc2)cc1 the screen gave -2.895%. For CC(C)N(CCNC(=O)c1n[nH]c2ccccc12)C(C)C the result was -5.205%. With COCCC(=O)NCC1COc2cc(OC)ccc2C1 (stereo unspecified) the screen gave 13.4%. With Cc1nc(CNCc2cccc(OC34CCCN(CC3)C4)c2)n[nH]1 (stereo unspecified) the screen gave 14.54%.

For CCc1cccc2cc(CN)c(=O)[nH]c12 the result was 2.547% & -14.09%. Result for O=C(NCC1CCOC1)N1CCN(Cc2ccc3c(c2)OCO3)CC1 (stereo unspecified) was 14.11%. COC(=O)C(C)NCc1ccc2[nH]c(C)c(C)c2c1 (stereo unspecified) gave -17.24%. Cc1c(Br)cccc1C(=O)Nc1cc(C(N)=O)n(C)c1 gave 18.34%. O=C(CCSc1ccc2c(c1)OCCO2)NCC1CCS(=O)(=O)C1 (stereo unspecified) gave 8.968%. Result for Cc1ccc(CN(CCCn2ccnc2)Cc2cnn(C)c2)s1.O=C(O)CC(O)(CC(=O)O)C(=O)O was -21.88%.

With CCCN1CCC(Nc2cc(-c3ccccc3)ccc2OC)CC1 the screen gave 52.38% & 60.39%. Result for CCCc1nc(N2Cc3cnn(Cc4ccc(F)cc4)c3C2)no1 was -9.229%. For CC(C)C[C@H](N)COc1cccc(F)c1Oc1cccc(Cl)c1 the result was 104.3%. For CCc1[nH]c2c(CNc3cnccn3)cc(F)cc2c1C the result was 43.64%. Result for CC(C)CNC(=O)c1cc2c(s1)CCN2S(C)(=O)=O was -13.35%. For CCN1CCN(C[C@@H]2CN(c3ncc(Cl)cc3F)C[C@@H]2CO)CC1 the result was 17.95%.

Cc1nn(C)c(C)c1CCC(=O)N1CC(c2cccnc2)C1 read -27.43%. CCc1c(C(=O)NCC2CCS(=O)(=O)C2)cnn1-c1ccc(C)cc1 (stereo unspecified) gave 5.975%. Result for Cc1cc(C(=O)N2CCN(Cc3ccsc3)CC2)n(C)n1 was -1.382%. For Cc1nsc(C(=O)NCCc2ccc(Cl)cc2)n1 the result was 62.99%. With CC(C)(C)c1cc(CN2CCOC(CN)C2)n[nH]1 (stereo unspecified) the screen gave -29.65%. Cc1ccnn1CCC(=O)N1CCCC2(C1)NC(=O)c1ccccc1O2 (stereo unspecified) gave 7.984% & -6.031%.

For CC(C)(C)Oc1ccc(NCC(=O)NCc2ccco2)cc1 the result was 11.56%. Result for COC(=O)c1ccc(CNC(C)(C)c2ccccc2OC)o1 was -5.182%. For CCOc1ccc(C(=O)NCc2ccnc(N3CCN(C)CC3)c2)cn1 the result was 3.359%. Result for CCCNC(=O)NC(=O)CNC(C)(C)c1ccc2c(c1)OCO2 was 24.18%. Result for CS(=O)(=O)c1cccc(C(N)c2ccc(Cl)cc2)c1 (stereo unspecified) was 6.655%. For [H][C@]12CC[C@]([H])(CN(Cc3ccc(Cn4cccn4)cc3)C1)N(CCC)C2 the result was -2.171%.

3 of the entries, repeated:

structure	effect
Cc1ccnn1CCC(=O)N1CCCC2(C1)NC(=O)c1ccccc1O2 (stereo unspecified)	7.984 & -6.031
CCc1[nH]c2c(CNc3cnccn3)cc(F)cc2c1C	43.64
COCc1nc2cc(NCc3ccc(C)o3)ccc2o1	9.304 & 16.05